Experimental data taken from publication PMC5869396 (Toxins, 2018).

Target: biotinylated rStx2aB (rStx2aB with human IgA1 hinge and biotin acceptor domain) (Escherichia coli O157:H7 EDL933 …, biotin (in vivo biotinylation on the biotin acceptor domain))
Details: both partners purified

B1: Nb113 (expressed from pMECS, C-terminal HA and His6 tags) (VHH)
VHH: QVQLQESGGGLVQPGGSLRLSCAASGFTFSSYYMSWVRQAPGKGPEWVSGINTGGVGTRYADSVKGRFTISRDNAKNTLYLQMNSLKPEDTALYYCAIGEGGNRNYWGQGTQVTVSS
notes: source: E. coli WK6 (pMECS), periplasmic extract, purified (IMAC, SEC)
Kd: 9.6 nM
koff: 0.0019 s⁻¹
kon: 195000 M⁻¹ s⁻¹
stoichiometry N: 4.52 per pentameric rStx2aB
